The values below are quoted from earlier work in article PMC5608908, “Novel scaffolds for inhibition of Cruzipain identified from high-throughput screening of anti-kinetoplastid chemical boxes” (Scientific Reports, 2017).

Details of this data set: method as in PMID 25740547. Particulars: relative frequency with which a compound has scored more than 50% inhibition in an HTS assay; cited from earlier work.

As to `COc1ccc(OC)c(S(=O)(=O)N(Cc2c(F)cccc2F)C2CCN(C#N)C2)c1` (centres unmarked) [TCMDC-143370], the inhibition frequency index is 2.41.
As for `N#CN1CC[C@@H](NC(=O)Nc2ccccc2Oc2ccccc2)C1` [TCMDC-143238], the inhibition frequency index is recorded as 5.10.
